Source: patent publication US20080050396A1

Molecular target: HLA-A2 (human)

HIV-1 pol476-484 (peptide) was tested. Which C50 did it give?
Its C50 is 0.7 µM.
